The results in this text go back to patent US20190252037A1.

Assay [1] addresses 4-repeats (28 amino acids) Ser-5 phosphorylated CTD peptide, fluorescently labelled with FAM at the N-terminal end.
For assay [2] the target is unchanged. This is another data set of the same source.
For assay [3] the target is unchanged. Nature of the assay: fluorescence anisotropy, FAM-labelled four-repeat SeP5 peptide. In general terms: Polarisation of emitted light reports the rotation of a fluorescent probe.
Assay [4] shares this target. The source holds these as a separate data set.

pKd: −log10 of the molar value. Like-named read-outs stand apart in the source and are kept apart here.

As for “FluB polymerase with the PA double mutation K631A+R634A (site 1)”, in assay [1], the Fold change (KD against wild type FluB) amounted to 2.6 fold and the pKd is 5.12. Besides, the fold decrease of binding affinity against wild type FluB polymerase in assay [2] was 2.5 fold.

Regarding “recombinant bat FluA polymerase with the PA double mutation K630A+R633A (site 1) (enzyme)”, in assay [3], the fold decrease of affinity against wild type bat FluA polymerase is 7.5 fold. In assay [1], this substance showed a Fold change (KD against wild type FluA) of 7.7 fold and a pKd of 5.16.

As for “recombinant bat FluA polymerase with the PA double mutation K289A+R449A (site 2)”, the pKd in assay [4] was 5.44.

“recombinant bat FluA polymerase with the PA double mutation K289A+R449A (site 2) (enzyme)” had a fold decrease of affinity against wild type bat FluA polymerase in assay [3] of 4 fold. Besides, the Fold change (KD against wild type FluA) in assay [1] came out at 3.9 fold.

As usually defined, the pKd is −log10 of the Kd, conventionally taken in molar units. Low values mean a large Kd, high ones a small Kd.
